In PMC6600388 (2019):
Like-named read-outs stand apart in the source and are kept apart here.

Test system: human red blood cells
Conditions: red cells of human

CC[C@H](C)[C@H](NC(=O)[C@H](C)NC(=O)[C@H](CCC(=O)O)NC(=O)[C@H](Cc1ccccc1)NC(=O)[C@H](CC(C)C)NC(=O)CNC(=O)[C@@H](N)CS)C(=O)N[C@@H](CCC(=O)O)C(=O)NCC(=O)N[C@@H](Cc1ccccc1)C(=O)N[C@H](C(=O)N[C@@H](CCC(=O)O)C(=O)N[C@@H](CC(N)=O)C(=O)N[C@@H](CCCCN)C(=O)N[C@@H](Cc1c[nH]c2ccccc12)C(=O)N[C@@H](CCC(=O)O)C(=O)NCC(=O)N[C@@H](CCSC)C(=O)N[C@H](C(=O)N[C@@H](CC(=O)O)C(=O)NCC(=O)N[C@@H](Cc1c[nH]c2ccccc12)C(=O)N[C@@H](Cc1ccc(O)cc1)C(=O)NCC(=O)N[C@@H](Cc1ccc(O)cc1)C(=O)NCC(=O)N[C@@H](CCCNC(=N)N)C(=O)N[C@@H](CCCCN)C(=O)N[C@@H](CCCCN)C(=O)N[C@@H](CCCNC(=N)N)C(=O)N[C@@H](CCCNC(=N)N)C(=O)N[C@@H](CCC(N)=O)C(=O)N[C@@H](CCCNC(=N)N)C(=O)N[C@@H](CCCNC(=N)N)C(N)=O)[C@@H](C)CC)[C@@H](C)CC [Peptide 24b]
IC50 (pH 5.5): > 10 µM | IC50 (pH 7.4): > 10 µM
